The data set deals with HCoV-229E. The format is cell-based, human coronavirus alpha-229E. The settings on record: Alpha-229E in Huh7 cells.

Take `CNc1nc(N)nc2c1ncn2[C@@H]1O[C@H](CO[P@@](=O)(N[C@@H](C)C(=O)OC(C)C)Oc2ccccc2)[C@@H](O)[C@@]1(C)F` [Compound 1A]: where the note is “CC50/EC50”, the “Neutral Red SI” value is listed as more than 50 and the “Visual SI” value is reported as more than 50. Also, under “CC50/EC90”, the “VYR SI” value was more than 70.

The values are drawn from patent US10874687B1 (Atea Pharmaceuticals, Inc., priority 2020, dated 2020).
